Results deposited as PubChem BioAssay AID504761 (Drosophila RNAi Screening Center, 2011)
Test: 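Fly genes whose silencing reduces dengue virus type 2 infection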 (primary screen). Cell system: D.Mel-2 cells from Drosophila. Reagent: long dsRNA against Drosophila genes. Treatment: infection with dengue virus type 2; dose and infection time not stated. Measured: 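Per well on two replicate plates, imaging gave the percent of cells positive for viral envelope protein, ranked by infection, and a nuclear count of cells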. Scale: infection score: higher = more virus-infected cells. Rule for the call: 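Very low infection ranking in both replicate wells (chance probability at most 0.065), then a retest showing infection dropped 1.5-fold or more at p below 0.05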. Meaning of the calls: active = confirmed: knock-down lowers infection; inactive = not picked or not confirmed.
In all, the deposit lists about 22,000 reagents; this is an unselected part of those that have a named target and a result. Of all reagents, 116 (0.52%) got an active call. 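Calls depend on retest data that are not deposited; infection was ranked per plate without normalising between plates; the unit of the infection score is not given.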 A plus sign joins genes that one reagent is predicted to hit. Further read-outs or replicates are left out here. The record does not give: the amount of reagent, the time to read-out.

gene | dsRNA | infection score, replicate 1 | infection score, replicate 2 | call
CR33318 | DRSC22949 | 5.05 | 11.2 | inactive
CG5969 | DRSC11789 | 13.7 | 16.6 | inactive
CG5969 | DRSC29030 | 10.4 | – | inactive
CG31347 | DRSC21582 | 1.59 | 4.06 | inactive
CG8960 | DRSC08612 | 14.6 | 8.91 | inactive
CG8960 | DRSC27132 | 39.5 | 16.3 | inactive
CG18605 | DRSC06772 | 3.84 | 0.91 | inactive
CG18605 | DRSC26583 | 1.64 | 2.84 | inactive
Balat | DRSC06852 | 16.7 | 15 | inactive
CG31141 | DRSC13646 | 8.87 | 1.37 | inactive
CG31141 | DRSC29508 | 13.3 | 8.02 | inactive
lncRNA:bxd | DRSC13176 | 0.59 | 0.2 | inactive
lncRNA:bxd | DRSC28062 | 22.7 | 22.6 | inactive
BOD1 | DRSC15824 | 13.4 | 6.12 | inactive
BOD1 | DRSC24273 | 2.56 | 8.97 | inactive
CG11106 | DRSC19381 | 1.49 | 2.06 | inactive
side-III | DRSC12155 | 11.5 | 4.78 | inactive
side-III | DRSC12264 | 3.17 | 5.76 | inactive
side-III | DRSC24955 | 11.6 | 2.89 | inactive
side-III | DRSC30000 | 14.3 | 5.01 | inactive
lncRNA:CR41601 | DRSC22158 | 8.95 | 3.56 | inactive
CG1239 | DRSC12204 | 2.18 | 9.48 | inactive
CG1239 | DRSC27944 | 4.92 | 15.5 | inactive
okr | DRSC00834 | 2.52 | 3.16 | inactive
okr | DRSC24838 | 6.59 | 0.4 | inactive
CG13016 | DRSC06271 | 6.79 | 7.44 | inactive
MstProx + Mst84Da | DRSC12597 | 7.99 | 4.04 | inactive
Prim2 | DRSC11610 | 23.1 | 30.1 | inactive
tous | DRSC04464 | 18.5 | 18.7 | inactive
CG13375 | DRSC18621 | 0.69 | 0.41 | inactive
CG4017 | DRSC02733 | 2.67 | 0.92 | inactive
CG7168 | DRSC16208 | 9.54 | 22.9 | inactive
CG9915 | DRSC21565 | 1.7 | 9.19 | inactive
CG9915 | DRSC27327 | 2.09 | 3.87 | inactive
CR14798 | DRSC17956 | 11.6 | 5.65 | inactive
CG8366 | DRSC07153 | 17.7 | 6.44 | inactive
CG3104 | DRSC25569 | 0.68 | 0.97 | inactive
CG32246 | DRSC08115 | 13.5 | 4.72 | inactive
CG32246 | DRSC24361 | 1.3 | 1.3 | inactive
Mipp1 | DRSC11223 | 6.75 | 6.75 | inactive
CG12376 | DRSC06144 | 14.6 | 4.05 | inactive
CG12376 | DRSC29464 | 24.6 | 17.2 | inactive
ND-B14.5A | DRSC18500 | 2.97 | 7.27 | inactive
hep | DRSC19839 | 8.12 | 11.8 | inactive
hep | DRSC20337 | 22.1 | 1.78 | inactive
hep | DRSC26331 | 2.08 | 2.1 | inactive
CG31211 | DRSC14953 | 4.24 | 7.07 | inactive
CG31211 | DRSC15344 | 4.75 | 3.75 | inactive
CG31211 | DRSC21478 | 3.75 | 2.5 | inactive
PpN58A | DRSC04642 | 12 | 22.9 | inactive
PpN58A | DRSC28243 | 11.4 | – | inactive
CG7720 | DRSC16306 | 0.16 | 1.8 | active
CG7720 | DRSC16307 | 0.85 | 3.02 | inactive
CG34277 + CG31542 | DRSC21544 | 1.79 | 3.54 | inactive
CG34277 + CG31542 | DRSC25567 | 3.47 | 2.04 | inactive
CG8490 | DRSC07194 | 22.7 | 11.7 | inactive
CG8490 | DRSC27075 | 11.9 | 18.5 | inactive
CG33981 + fab1 | DRSC07412 | 10.1 | 11 | inactive
CG33981 + fab1 | DRSC28045 | 4.08 | 12.1 | inactive
lectin-37Da | DRSC03278 | 4.99 | 9.56 | inactive
lectin-37Da | DRSC22729 | 2.88 | 3.68 | inactive
CG32727 | DRSC17519 | 2.84 | 4.88 | inactive
CG13331 | DRSC06366 | 0.17 | 9.26 | inactive
CG13282 | DRSC02254 | 8.03 | 3.83 | inactive
CG14605 | DRSC12549 | 1.94 | 5.63 | inactive
CG14605 | DRSC29195 | 17.8 | 14.1 | inactive
Femcoat | DRSC18061 | 4.51 | 4.49 | inactive
Femcoat | DRSC28792 | 24.4 | 5.62 | inactive
escl | DRSC02828 | 10.5 | 10.9 | inactive
escl | DRSC26256 | 2.59 | 1.85 | inactive
bab2 | DRSC08150 | 2.34 | 1.67 | inactive
bab2 | DRSC26326 | 7.1 | 13.6 | inactive
l(2)09851 | DRSC04858 | 3.67 | 6.4 | inactive
v | DRSC20383 | 5.85 | 4.21 | inactive
